Data set [1] has as its system T1, HipB (Acidovorax citrulli Aac5).
T1 sequence (looked up): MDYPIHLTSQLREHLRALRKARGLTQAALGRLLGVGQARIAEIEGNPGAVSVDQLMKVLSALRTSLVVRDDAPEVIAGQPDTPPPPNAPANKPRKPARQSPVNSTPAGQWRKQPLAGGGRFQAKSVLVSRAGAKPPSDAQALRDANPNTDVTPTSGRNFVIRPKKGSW
In words: competition with a labelled probe. The settings on record: unlabeled PhipBA against PhipBA-FAM, HipB 12 uM, shifted band absent (Table A3 calls it non-specific competitor); 20 uL reaction (buffer composition and pH not stated), HipB 12-36 uM, PhipBA-FAM 60 ng/uL, PhipBA 120 ng/uL, room temperature 30 min, 6% SDS-free protein gel; recombinant protein; residues 1-168; protein details: N-terminal 6xHis (pET-28a); probe letters rebuilt from the primers and the genome.

For data set [2] the test system is unchanged. Put plainly: EMSA. The settings on record: HipB 12, 24, 36 uM; 20 uL reaction (buffer composition and pH not stated), HipB 12-36 uM, PhipBA-FAM 60 ng/uL, PhipBA 120 ng/uL, room temperature 30 min, 6% SDS-free protein gel; recombinant protein; residues 1-168; protein details: N-terminal 6xHis (pET-28a); label: 5' FAM; probe letters rebuilt from the primers and the genome. On the technique in general: Mobility shift assays separate free from complexed probe on a gel.

Tags and fusion partners may be left off the protein sequences shown.

As to “CATCTATATCGGTTCGTGCCAATATATCTACCAAAGCCAGTTTTTGCAAGATATTGGATTTGGTGTATGAATGGCGGTTATTGGAGATGCCCAGTAATTCATGCCTCGTCTGGCGAGTGACCGATTCATCGGACCACGGCGCACGAGCCTGGGGCTGCAGGAACGCTTCATCGCGGAGCTGGGGACCGAGTGATCGTCCGAGGTGTGCGTCCCCGCGGCTTCAATCCGGCCAGGCGTCCCGGCCGTGTTCCCTCCGCAATTCCTCGGCCCTGCTGCGTATCGCCTCACGCTCCTGCGGCCGCATCGTCTCCAGCCGCGCCAGCTGTGCCGCCATGCGGGGCACGTCTGCCAGCAGTTCCCGGTGCCTGAGCAGGAAGTCCCTGTAGAGCGTGGTGA (double strand) [PhipBA (unlabeled competitor)]”, the binding result in data set [1] is “binds”.

Take “CATCTATATCGGTTCGTGCCAATATATCTACCAAAGCCAGTTTTTGCAAGATATTGGATTTGGTGTATGAATGGCGGTTATTGGAGATGCCCAGTAATTCATGCCTCGTCTGGCGAGTGACCGATTCATCGGACCACGGCGCACGAGCCTGGGGCTGCAGGAACGCTTCATCGCGGAGCTGGGGACCGAGTGATCGTCCGAGGTGTGCGTCCCCGCGGCTTCAATCCGGCCAGGCGTCCCGGCCGTGTTCCCTCCGCAATTCCTCGGCCCTGCTGCGTATCGCCTCACGCTCCTGCGGCCGCATCGTCTCCAGCCGCGCCAGCTGTGCCGCCATGCGGGGCACGTCTGCCAGCAGTTCCCGGTGCCTGAGCAGGAAGTCCCTGTAGAGCGTGGTGA (double strand) [PhipBA-FAM]”: in data set [2], the binding result was “binds”.

Values taken from PMC11990009.
